PubChem BioAssay AID624099, ICCB-Longwood, 2012
Screen: 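Human genes that papillomavirus E2 requires to repress the HPV18 LCR promoter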 (primary screen). System: human C33A cervical carcinoma cells (HPV-negative) stably expressing BPV1 E2 and an HPV18 LCR luciferase reporter. Reagent: siRNA pool against human genes, 40 nM. Time to read-out: 72 h. Detection: 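HPV18 LCR reporter light per well, converted to plate-wise z-scores that exclude control wells, and averaged over triplicate plates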. Direction: mean z-score and z-score: higher = stronger reporter signal, weaker E2 silencing. Hit rule: 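Hit if mean z-score reaches 2 and two or more of three replicate z-scores also reach 2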.
The deposit covers about 21,000 reagents; shown is a random part of them. 497 of them (2.4%) were called active. 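Higher z means weaker E2 silencing; only reporter increases were scored, and knock-downs that hurt cell survival may mask genuine repressor factors.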 A number with no mark means an inactive call. Reagent sequences are not shown.

no.	Gene	PubChem SID	mean z-score	z-score, replicate A	z-score, replicate B	z-score, replicate C
1	ZNF514 (zinc finger protein 514)	SID134319063	-0.17	-0.23	-0.25	-0.03
2	ZNF766 (zinc finger protein 766)	SID134325846	0.03	0.06	0.27	-0.25
3	CNTNAP3B (contactin associated protein family member 3B)	SID134328077	2.13 (active)	2.08	2.06	2.26
4	CNTNAP3B (contactin associated protein family member 3B)	SID134328078	2.23 (active)	2.55	2.22	1.91
5	NSMCE1 (NSE1 component of SMC5/6 complex)	SID134312278	-0.81	-0.98	-0.92	-0.52
6	CIB1 (calcium and integrin binding 1)	SID134316544	-1.16	-0.93	-1.31	-1.24
7	CBR1 (carbonyl reductase 1)	SID134310500	-0.19	-0.15	-0.23	-0.2
8	CLK3 (CDC like kinase 3)	SID56478875	0.49	-0.25	1.2	0.53
9	C11orf16 (chromosome 11 open reading frame 16)	SID134324352	-0.44	-0.4	-0.55	-0.38
10	WSCD1 (WSC domain sialate O sulfotransferase 1)	SID134325575	-2.82	-2.65	-3.01	-2.82
11	CHD9 (chromodomain helicase DNA binding protein 9)	SID134328939	1.23	1.37	1.23	1.08
12	DUSP19 (dual specificity phosphatase 19)	SID134312828	-1.09	-1.07	-1.26	-0.95
13	ETFBKMT	SID134322249	-1.1	-0.92	-0.94	-1.45
14	CACNB3 (calcium voltage-gated channel auxiliary subunit beta 3)	SID134313630	-0.74	-0.89	-1.16	-0.18
15	ZC3H8 (zinc finger CCCH-type containing 8)	SID134318989	0.21	0.52	0.16	-0.07
16	CDC42EP1 (CDC42 effector protein 1)	SID134321482	-0.45	-0.43	-0.63	-0.28
17	DDO (D-aspartate oxidase)	SID134314071	1.69	1.73	1.87	1.45
18	BIRC6 (baculoviral IAP repeat containing 6)	SID134318057	0.56	0.43	0.82	0.44
19	MMAA (metabolism of cobalamin associated A)	SID134320318	0.5	0.65	0.5	0.35
20	ZNF551 (zinc finger protein 551)	SID134319553	0.08	0.06	0.37	-0.19
21	KRTAP6-2 (keratin associated protein 6-2)	SID134321891	-0.47	-0.33	-0.51	-0.58
22	GJD4 (gap junction protein delta 4)	SID134319849	1.17	0.87	1.3	1.34
23	AUNIP (aurora kinase A and ninein interacting protein)	SID134318438	0.56	0.75	0.42	0.52
24	EHBP1 (EH domain binding protein 1)	SID134318244	-1.29	-1.55	-1.33	-0.99
25	LRRC17 (leucine rich repeat containing 17)	SID134323772	-0.04	0.13	-0.13	-0.13
26	TMEM204 (transmembrane protein 204)	SID134318542	0	0.4	-0.17	-0.21
27	HSPA13 (heat shock protein family A (Hsp70) member 13)	SID134319709	-0.72	-0.81	-0.74	-0.6
28	TOX2 (TOX high mobility group box family member 2)	SID134319098	-1.25	-1.48	-1.02	-1.24
29	MRPL37 (mitochondrial ribosomal protein L37)	SID134321395	-0.7	0.02	-1.03	-1.09
30	WBP1 (WW domain binding protein 1)	SID134316755	1.63	1.7	1.4	1.8
31	PHF10 (PHD finger protein 10)	SID134317578	-0.81	-1.06	-1.04	-0.31
32	SYAP1 (synapse associated protein 1)	SID134321130	-0.36	-0.5	-0.14	-0.44
33	PLD6 (phospholipase D family member 6)	SID134321766	-1.35	-1.4	-1.31	-1.35
34	BST2 (bone marrow stromal cell antigen 2)	SID134316134	0.51	0.41	0.52	0.61
35	ATF6B (activating transcription factor 6 beta)	SID134313658	1.05	0.38	1.41	1.36
36	LOC400846 (retired record)	SID134329022	0.39	0.43	0.67	0.06
37	PRSS48 (serine protease 48)	SID134323197	-1.04	-1.28	-0.95	-0.88
38	WBSCR23 (Williams-Beuren syndrome chromosome region 23)	SID134317192	-0.32	-0.28	-0.21	-0.47
39	CALY (calcyon neuron specific vesicular protein)	SID134314978	0.95	0.63	1.07	1.13

No new results follow: an excerpt of the list.
no.	Gene	PubChem SID	mean z-score	z-score, replicate A	z-score, replicate B	z-score, replicate C
2	ZNF766 (zinc finger protein 766)	SID134325846	0.03	0.06	0.27	-0.25
3	CNTNAP3B (contactin associated protein family member 3B)	SID134328077	2.13 (active)	2.08	2.06	2.26
4	CNTNAP3B (contactin associated protein family member 3B)	SID134328078	2.23 (active)	2.55	2.22	1.91
5	NSMCE1 (NSE1 component of SMC5/6 complex)	SID134312278	-0.81	-0.98	-0.92	-0.52
